{"sequences": {"note": "By UniProt entry, the sequences of proteins in these tests, tags left out. Where a name states a change or a piece, a line headed by the entry shows the natural chain unless it says otherwise.", "UniProt P03070": "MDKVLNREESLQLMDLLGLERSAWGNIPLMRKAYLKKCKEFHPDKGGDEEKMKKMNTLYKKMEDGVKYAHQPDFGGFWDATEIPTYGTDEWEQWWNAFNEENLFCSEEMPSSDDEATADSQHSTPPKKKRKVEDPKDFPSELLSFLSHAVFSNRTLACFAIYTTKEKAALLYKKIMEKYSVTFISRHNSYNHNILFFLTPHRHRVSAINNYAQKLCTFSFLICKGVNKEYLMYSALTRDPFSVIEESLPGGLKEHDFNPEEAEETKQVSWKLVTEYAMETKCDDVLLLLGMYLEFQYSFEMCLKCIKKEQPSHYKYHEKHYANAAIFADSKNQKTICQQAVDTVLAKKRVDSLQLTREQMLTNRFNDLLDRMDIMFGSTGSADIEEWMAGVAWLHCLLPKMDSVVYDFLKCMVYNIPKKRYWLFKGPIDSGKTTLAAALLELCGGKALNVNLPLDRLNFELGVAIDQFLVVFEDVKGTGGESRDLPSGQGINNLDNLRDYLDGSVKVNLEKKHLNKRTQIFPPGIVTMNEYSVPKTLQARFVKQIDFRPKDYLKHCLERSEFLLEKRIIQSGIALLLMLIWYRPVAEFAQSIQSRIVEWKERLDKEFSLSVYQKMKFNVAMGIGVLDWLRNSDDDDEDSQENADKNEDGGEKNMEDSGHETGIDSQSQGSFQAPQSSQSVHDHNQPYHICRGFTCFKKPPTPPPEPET"}, "source": "paper PMC3791872", "about": "“Ciprofloxacin is an inhibitor of the Mcm2-7 replicative helicase” (Bioscience Reports, 2013)", "target": "SV40 large T antigen (TAg) (SV40) (UniProt P03070)", "test": "double filter binding", "conditions": "no inhibitor control (1% DMSO), 150 nM hexamer, 4 nM ssDNA, 150 nM helicase hexamer, 20 min inhibitor preincubation at 37 C, label: 5'-32P, single-stranded DNA", "note": "Construct, isoform or probe ends are uncertain for at least one entry. At least one verdict was read from the data and is not stated in words by the source.", "data": [{"sequence": "TGTCTAATCCCGAAAGGCCCTGCCACTGAAATCAACACCTAAAGCATTGA [oligo 826]", "values": [{"measurement": "binding result", "result": "binds"}]}]}
